From patent US20070190523A1 (priority 2002, published 2007)

System: mutant HIV-1 with M46F/I47V/I50V mutations (I50V #1)
Format: cell-based
[1] = fold difference in EC50 vs wild type, class symbols

Compound | I50V (#1) fold change [1] | I50V (#1) fold change (I50V (#1) mutant)
COc1ccc(S(=O)(=O)N(CC(C)C)CC(O)C(CNc2ccc(CP(=O)(O)O)cc2)NC(=O)OC2COC3OCCC23)cc1 (stereo not shown) | + (>3 to ≦10) | 
CCOP(=O)(COc1ccc2c(c1)CCN(CC(NC(=O)OC1COC3OCCC13)C(O)CN(CC(C)C)S(=O)(=O)c1ccc(OC)cc1)C2)OCC (stereo not shown) | + (>3 to ≦10) | 
CCOC(=O)COP(=O)(COc1ccc(CC(NC(=O)OC2COC3OCCC23)C(O)CN(CC(C)C)S(=O)(=O)c2ccc(OC)cc2)cc1)OCC(=O)OCC (stereo not shown) [drawing 607 R1=Glc-Et R2=Glc-Et] | − (≦3) | 
CCOC(=O)C(C)OP(=O)(Cc1ccc2c(c1)CCN(C[C@H](NC(=O)O[C@H]1CO[C@H]3OCC[C@H]31)[C@H](O)CN(CC(C)C)S(=O)(=O)c1ccc(OC)cc1)C2)Oc1ccccc1 (stereo partly shown) |  | ++ (>10 to ≦30)

Like-named read-outs stand apart in the source and are kept apart here.
